Test results from patent US9724383B2, “Stabilized trimeric HIV-1 GP41 fusion inhibitor polypeptides comprising the N-terminal heptad repeat (NHR) and foldon (FD) trimerization motif” (New York Blood Center, Inc., priority 2009, dated 2017).

Molecular target: CHR-peptide C34 (Human immunodeficiency virus type 1 group M subtype B, UniProt P04578)
Assay type: binding, HIV-1
Details: molar ratio 1:1, 10 μM in PBS pH 7.2; Fd spectrum subtracted for Fd fusions
Description: All the N-peptides were diluted in ddH2O (pH 7.0) and all the C-peptides or the mixture of the N- and C-peptides were diluted in 50 mM sodium phosphate and 150 mM NaCl (PBS, pH 7.2) to a final concentration of 10 μM. The individual peptides and their mixtures were incubated in a 37° C. water bath for 0.5 h before testing. […] The α-helicity was calculated from the CD signal by dividing the mean residue ellipticity at 222 nm by the value expected for 100% helix formation (i.e., 33,000° cm^2 dmol^−1) according to previous studies. Thermal denaturation of the samples was monitored at 222 nm by applying a temperature gradient from 20° C. to 98° C. with a 2-degree interval, an equilibration time of 1.5 min, and an averaging time of 60 s. The midpoint of the thermal unfolding transition (Tm) values was calculated using Jasco software utilities as described previously.

IEAQQHLLQLTVWGIKQLQARILAVERYGYIPEAPRDGQAYVRKDGEWVLLSTFL [N28Fd]
α-helicity of complex with C34: 46.3%
